Measurements reported in patent US20020115066A1, “Viral therapeutics” (priority 1998, published 2002).
Some results come without the dose or concentration used.

Experiment: Stability and cleavage of core protein variants (Western blot with JM122)
Format: cell-based, hamster
Conditions: 16 hours after electroporation

B1: pSFV.1-124,145-152: core variant truncated at residue 152 and lacking amino acids 125 to 144 (protein)
chain: GACECPGRSRRPCTMSTNPKPQRKTKRNTNRRPQDVKFPGGGQIVGGVYLLPRRGPRLGVRATRKTSERSQPRGRRQPIPKARRPKGRNWAQPGYPWPLYGNEGCGWAGWLLSPSGSRPSWGPNVDLMGYIP
Compared with pSFV.1-195, pSFV.1-153 and pSFV.Δ125-144
  level of reduction in amount of protein: approximately 5 fold

B2: pSFV.Δ125-144: construct expressing a core variant in which residues 125 to 144 had been deleted (protein)
chain: GACECPGRSRRPCTMSTNPKPQRKTKRNTNRRPQDVKFPGGGQIVGGVYLLPRRGPRLGVRATRKTSERSQPRGRRQPIPKARRPKGRNWAQPGYPWPLYGNEGCGWAGWLLSPSGSRPSWGPNVDLMGYIPLVGAPLRGAARALAHGVRVLEDGVNYATGNLPGCSFSIFLLAL
Relative band intensities
  abundance of uncleaved product relative to cleaved material at the internal processing site: 4-5 fold
